PubChem BioAssay AID624099, ICCB-Longwood | 2012
Purpose: 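Human genes that papillomavirus E2 requires to repress the HPV18 LCR promoter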 (primary screen). System: human C33A cervical carcinoma cells (HPV-negative) stably expressing BPV1 E2 and an HPV18 LCR luciferase reporter. Reagents: siRNA pool against human genes, 40 nM. Timing: 72 h. Measurement: 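Per-well luciferase luminescence, z-scored on each plate against the plate mean and SD with control wells left out, then averaged across three replicate plates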. Direction: mean z-score and z-score: higher = stronger reporter signal, weaker E2 silencing. Call rule: 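Mean z ≥ 2 together with z ≥ 2 in two or more of the three replicates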.
Here is a random part of about 21,000 deposited reagents. 497 of them (2.4%) were called active. 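Higher z means weaker E2 silencing; only reporter increases were scored, and knock-downs that hurt cell survival may mask genuine repressor factors.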 Reagents against one gene are numbered here. No sequences are given here.

target | reagent | mean z-score | z-score, replicate A | z-score, replicate B | z-score, replicate C | Call
ACKR4 | 1 | -1.21 | -1.28 | -1.06 | -1.29 | inactive
CPVL | 1 | -1.11 | -1.24 | -1.19 | -0.9 | inactive
LEO1 | 1 | 0.28 | 0.18 | 0.38 | 0.3 | inactive
PANK2 | 1 | -0.72 | -0.64 | -0.84 | -0.68 | inactive
SLC9A3-OT1 | 1 | -0.01 | 0.06 | -0.11 | 0.01 | inactive
PHETA1 | 1 | -0.51 | -0.35 | -0.85 | -0.34 | inactive
CTBP2 | 1 | 1.1 | 1.08 | 0.82 | 1.41 | inactive
IGHG4 | 1 | 0.74 | 1.02 | 0.37 | 0.82 | inactive
TGFB1I1 | 1 | -0.11 | 0.07 | -0.3 | -0.09 | inactive
MAP3K11 | 1 | 0.63 | 0.53 | 0.79 | 0.57 | inactive
HEPACAM2 | 1 | -0.08 | -0.27 | 0.39 | -0.36 | inactive
TM9SF1 | 1 | -0.7 | -0.67 | -0.76 | -0.68 | inactive
LOC401704 (retired record) | 1 | -0.68 | -0.76 | -0.55 | -0.74 | inactive
RIT1 | 1 | -1.2 | -1.23 | -1.26 | -1.12 | inactive
THAP9 | 1 | 0.12 | 0.12 | 0.01 | 0.23 | inactive
SIM2 | 1 | 1.66 | 1.71 | 1.73 | 1.53 | inactive
VPS13C | 1 | -0.77 | -0.93 | -0.99 | -0.4 | inactive
OR14A16 | 1 | -0.09 | -0.18 | 0.31 | -0.41 | inactive
BSPRY | 1 | -1.06 | -1.28 | -1.06 | -0.84 | inactive
MIX23 | 1 | 1.01 | 0.88 | 1.32 | 0.85 | inactive
TRPA1 | 1 | -0.13 | 0.02 | -0.04 | -0.36 | inactive
SYNPO2 | 1 | 1.78 | 2.31 | 1.71 | 1.32 | inactive
AMPD2 | 1 | -0.68 | -0.84 | -0.54 | -0.65 | inactive
BMP1 | 1 | 0.68 | 0.85 | 0.92 | 0.26 | inactive
PALS2 | 1 | -1.32 | -1.17 | -1.06 | -1.72 | inactive

Next part, starting with the last 8 of the part before.
target | reagent | mean z-score | z-score, replicate A | z-score, replicate B | z-score, replicate C | Call
OR14A16 | 1 | -0.09 | -0.18 | 0.31 | -0.41 | inactive
BSPRY | 1 | -1.06 | -1.28 | -1.06 | -0.84 | inactive
MIX23 | 1 | 1.01 | 0.88 | 1.32 | 0.85 | inactive
TRPA1 | 1 | -0.13 | 0.02 | -0.04 | -0.36 | inactive
SYNPO2 | 1 | 1.78 | 2.31 | 1.71 | 1.32 | inactive
AMPD2 | 1 | -0.68 | -0.84 | -0.54 | -0.65 | inactive
BMP1 | 1 | 0.68 | 0.85 | 0.92 | 0.26 | inactive
PALS2 | 1 | -1.32 | -1.17 | -1.06 | -1.72 | inactive
AP3B2 | 1 | -0.48 | -0.65 | -0.52 | -0.27 | inactive
KRT8P11 | 1 | 0.55 | 1.05 | 0.08 | 0.54 | inactive
ATG4D | 1 | -1.69 | -1.41 | -2.02 | -1.64 | inactive
EFNA2 | 1 | -0.87 | -0.9 | -0.76 | -0.95 | inactive
LHFPL4 | 1 | -0.21 | -0.21 | -0.16 | -0.27 | inactive
TAS2R5 | 1 | 0.1 | 0.26 | -0.1 | 0.13 | inactive
FAM124A | 1 | 0.77 | 0.7 | 0.93 | 0.68 | inactive
ARHGEF10 | 1 | 1.34 | 1.27 | 1.22 | 1.53 | inactive
EME1 | 1 | -0.76 | -0.98 | -0.67 | -0.64 | inactive
PNMA8A | 1 | -1.32 | -1.64 | -1.18 | -1.15 | inactive
ATP13A4 | 1 | -1.63 | -1.51 | -1.42 | -1.96 | inactive
TTPA | 1 | -0.2 | -0.25 | -0.25 | -0.1 | inactive
FILIP1 | 1 | 0.29 | 0.5 | 0.43 | -0.06 | inactive
WFDC1 | 1 | -0.86 | -0.76 | -1.01 | -0.81 | inactive
CDK14 | 1 | 0.97 | 1.15 | 0.78 | 0.99 | inactive
CNNM1 | 1 | 0.78 | 0.74 | 0.89 | 0.71 | inactive
ODAD3 | 1 | 0.44 | 0.64 | 0.25 | 0.44 | inactive
LOC728114 (retired record) | 1 | -0.65 | -0.43 | -0.71 | -0.81 | inactive
COX17 | 1 | 0.48 | 0.47 | 0.38 | 0.6 | inactive
EGFEM1P | 1 | 0.49 | 0.58 | 0.47 | 0.42 | inactive
EGFEM1P | 2 | -0.08 | -0.06 | -0.07 | -0.12 | inactive
EGFEM1P | 3 | 1.59 | 1.87 | 1.54 | 1.37 | inactive
CNOT11 | 1 | 0.39 | 0.5 | 0.27 | 0.39 | inactive
LRRC2 | 1 | -0.26 | -0.45 | -0.13 | -0.18 | inactive
LCE5A | 1 | 2.05 | 1.75 | 1.7 | 2.71 | inactive
SLC47A1 | 1 | -0.79 | -1.08 | -0.67 | -0.6 | inactive
GNGT1 | 1 | 0.55 | 0.93 | 0.5 | 0.22 | inactive
KIAA0408 | 1 | 0.19 | 0.35 | -0.01 | 0.23 | inactive
OLFML2A | 1 | -2.31 | -2.15 | -2.57 | -2.19 | inactive
CENPT | 1 | -0.35 | -0.28 | -0.46 | -0.3 | inactive
RELB | 1 | -0.74 | -0.98 | -0.53 | -0.7 | inactive
ADH1B | 1 | -0.38 | -0.5 | -0.41 | -0.22 | inactive
